Data published in patent US20030220338A1, “Fungal efflux pump inhibitors” (priority 2001, published 2003).

Columns and labels:
[1] = tested on: C. glabrata YEM19 (over-expressing the CgCDR1 and CgCDR2 pumps); assay: Checkerboard / broth microdilution assay, potentiation of fluconazole vs. C. glabrata; settings: for MIC: Nakaseomyces glabratus, 48 h; for MPC8: in combination with fluconazole, strain YEM19
[2] = tested on: Candida albicans YEM15 (over-expressing the CDR1 and CDR2 pumps); assay: Checkerboard / broth microdilution assay, potentiation of fluconazole vs. C. albicans; settings: for MIC: Candida albicans, 48 h; for MPC8 = concentration of efflux pump inhibitor necessary to reduce the fluconazole MIC 8-fold: in combination with fluconazole, strain YEM15

Row | SMILES | MIC [1] [µg/mL] | MPC8 [1] [µg/mL] | MIC [2] [µg/mL] | MPC8 = concentration of efflux pump inhibitor necessary to reduce the fluconazole MIC 8-fold [2] [µg/mL]
1 | COc1ccc(N(C(=O)Nc2ccc(F)cc2)C(C)c2nc3ccc(O)cc3c(=O)n2N2CCN(C)CC2)c(OC)c1 (stereo not shown) [Compound 84] | > 32 | 1 | > 32 | 16
2 | COc1ccc(N(C(=O)Nc2ccc(Cl)cc2)C(C)c2nc3ccc(C)cc3c(=O)n2N2CCN(C)CC2)c(OC)c1 (stereo not shown) [Compound 69] | > 32 | 2 | > 32 | 0.125
3 | COc1ccc(N(C(=O)Nc2ccc(F)cc2)C(C)c2nc3ccccc3c(=O)n2N2CCN(C(=O)[C@H]3CCCN3)CC2)c(OC)n1 (stereo partly shown) [Compound 198] | > 32 | 2 | > 32 | 32
4 | COc1ccc(N(C(=O)Nc2ccccc2)C(C)c2nc3ccccc3c(=O)n2N2CCN(CC(=O)N3CCOCC3)CC2)c(OC)c1 (stereo not shown) [Compound 116] | > 32 | 1 | > 32 | 0.5
5 | COc1ccc(N(C(=O)Nc2ccc(F)cc2)C(C)c2nc3ccccc3c(=O)n2N2CCN(C(=O)OCCSc3nncs3)CC2)c(OC)c1 (stereo not shown) [Compound 105] | > 32 | 0.25 | > 32 | 0.5
6 | COc1ccc(N(C(=O)Nc2ccc(F)cc2)C(C)c2nc3ccccc3c(=O)n2N2CCN(C(=O)OCCC#N)CC2)c(OC)c1 (stereo not shown) [Compound 104] | > 32 | 0.25 | > 32 | 0.25
7 | COc1ccc(N(C(=O)Nc2ccc(F)cc2)C(C)c2nc3cc(C#N)ccc3c(=O)n2N2CCN(C)CC2)c(OC)c1 (stereo not shown) [Compound 79] | > 32 | 2 | > 32 | 0.5
8 | CCOC(=O)N1CCN(n2c(C(C)N(C(=O)Nc3ccc(F)cc3)c3ccc(OC)cc3OC)nc3ccccc3c2=O)CC1 (stereo not shown) [Compound 47] | > 32 | 0.5 | > 32 | 0.25
9 | COc1ccc(N(C(=O)Nc2ccc(F)cc2)C(C)c2nc3ccccc3c(=O)n2N2CCN(C(=O)N3CCN(C(=O)OC(C)(C)C)CC3)CC2)c(OC)c1 (stereo not shown) [Compound 199] | > 32 | 2 | > 32 | 16
10 | CC(c1nc2ccccc2c(=O)n1N1CCN(C(=O)C2CC2)CC1)N(C(=O)Nc1ccc(F)cc1)c1cccc(-n2nccn2)c1 (stereo not shown) [Compound 205] | > 32 | 2 | > 32 | 0.25
11 | COc1ccc(N(C(=O)Nc2ccc(F)cc2)C(C)c2nc3ccccc3c(=O)n2N2CCN(CCCC(=O)NS(=O)(=O)c3ccccc3)CC2)c(OC)c1 (stereo not shown) [Compound 179] | > 32 | 16 | > 32 | 32
12 | COc1ccc(N(C(=O)Nc2ccc(F)cc2)C(C)c2nc3ccccc3c(=O)n2N2CCN(C(=O)OCCN3CCSCC3)CC2)c(OC)c1 (stereo not shown) [Compound 103] | > 32 | 0.25 | > 32 | 1
13 | CC(c1nc2ccc(F)cc2c(=O)n1N1CCN(C)CC1)N(C(=O)Nc1ccc(F)cc1)c1ccc(F)cc1F (stereo not shown) [Compound 68] | > 32 | 16 | > 32 | 2
14 | COc1ccc(N(C(=O)Nc2ccc(F)cc2)C(C)c2nc3ccccc3c(=O)n2N2CCN(C(=O)Cc3cn(C)cn3)CC2)c(OC)c1 (stereo not shown) [Compound 162] | > 32 | 0.5 | > 32 | 1
15 | COc1ccc(N(C(=O)Nc2ccc(F)cc2)C(C)c2nc3ccccc3c(=O)n2N2CCN(C(=O)OCCN3CCCCC3)CC2)c(OC)c1 (stereo not shown) [Compound 100] | > 32 | 0.25 | > 32 | 1
16 | COc1ccc(N(C(=O)Nc2ccc(F)cc2)C(C)c2nc3ccccc3c(=O)n2N2CCN(C(=O)CN3CCCCC3)CC2)c(OC)n1 (stereo not shown) [Compound 145] | > 32 | 0.5 | > 32 | 2
17 | COc1ccc(N(C(=O)Nc2ccc(F)cc2)C(C)c2nc3ccccc3c(=O)n2N2CCN(CCCC(=O)NC#N)CC2)c(OC)c1 (stereo not shown) [Compound 181] | > 32 | 16 | > 32 | 32
18 | COc1ccc(N(C(=O)Nc2ccc(F)cc2)C(C)c2nc3ccccc3c(=O)n2N2CCN(C(=O)NCCO)CC2)c(OC)c1 (stereo not shown) [Compound 136] | > 32 | 2 | > 32 | 8
19 | COc1ccc(N(C(=O)Nc2ccc(F)cc2)C(C)c2nc3ccccc3c(=O)n2N2CCN(C(=O)N3CCOCC3)CC2)c(OC)n1 (stereo not shown) [Compound 202] | > 32 | 1 | > 32 | 0.06
20 | COc1ccc(N(C(=O)Nc2ccc(F)cc2)C(C)c2nc3ccccc3c(=O)n2N2CCN(CC(=O)N3CCOCC3)CC2)cc1 (stereo not shown) [Compound 114] | > 32 | 4 | > 32 | 2
21 | COc1ccc(N(C(=O)Nc2ccc(F)cc2)C(C)c2nc3c(OC)cccc3c(=O)n2N2CCN(C)CC2)c(OC)c1 (stereo not shown) [Compound 82] | > 32 | 8 | > 32 | 8
22 | COc1ccc(N(C(=O)Nc2ccc(F)cc2)C(C)c2nc3ccccc3c(=O)n2N2CCN(C(=O)OCCn3ccnc3)CC2)c(OC)c1 (stereo not shown) [Compound 97] | > 32 | 0.5 | > 32 | 0.25
23 | COc1ccc(N(C(=O)Nc2ccc(Cl)cc2)C(C)c2nc3c(OC)cccc3c(=O)n2N2CCN(C)CC2)c(OC)c1 (stereo not shown) [Compound 83] | > 32 | 2 | > 32 | 4
24 | COc1ccc(N(C(=O)Nc2ccc(Cl)cc2)C(C)c2nc3ccc(OC)cc3c(=O)n2N2CCN(C)CC2)c(OC)c1 (stereo not shown) [Compound 74] | > 32 | 1 | > 32 | 0.25
25 | CCC(=O)Oc1ccc2nc(C(C)N(C(=O)Nc3ccc(F)cc3)c3ccc(OC)cc3OC)n(N3CCN(C)CC3)c(=O)c2c1 (stereo not shown) [Compound 72] | > 32 | 4 | > 32 | 4
